Values of other authors as cited in article PMC2935281 (Acta Crystallographica Section D: Biological Crystallography, 2010).

Tests used:
[1] = system: LS from M. tuberculosis (MtLS); conditions: cited from earlier work
C. albicans LS (CaLS) = conditions: cited from earlier work

Compound: O=c1[nH]c(Cl)c(CCCCOP(=O)(O)O)c(=O)[nH]1 [JC33, 4-(6-Chloro-2,4-dioxo-1,2,3,4-tetrahydropyrimidine-5-yl)-n-butyl 1-phosphate]
- Binding enthalpy ΔH [1]: -10.52 ± 0.11 kcal/mol
- Free energy of binding ΔG [1]: -8.52 ± 0.05 kcal/mol
- No. of sites n [1]: 0.98 ± 0.04
- TΔS [1]: -2.00 ± 0.12 kcal/mol
- Binding enthalpy ΔH (C. albicans LS (CaLS)): -6.98 ± 0.24 kcal/mol
- Free energy of binding ΔG (C. albicans LS (CaLS)): -9.38 ± 0.01 kcal/mol
- No. of sites n (C. albicans LS (CaLS)): 1.15 ± 0.03
- TΔS (C. albicans LS (CaLS)): 2.44 ± 0.25 kcal/mol
